Measured values from several laboratories, pooled; numbers as filed in NIAID ChemDB.

Common to all: tests on isolated targets

Two numbers with a dash give a range or band. ICn is the concentration giving n% inhibition. Fold resistance: result on the changed form divided by that on wild type. An empty or dashed field is not shown. Conditions beyond the fields shown may differ between rows.

smiles,species,mutations,target,method,measure,result
O=C(OC1CCCCC1)c1cn2ccn(Cc3cccc(Cl)c3)c(=O)c2c(O)c1=O,HIV-1,-,Integrase,ELISA,IC50,0.01–0.1 µM
Nc1ncnc2c1ccn2[C@H]1C[C@H](F)[C@@H](COP(=O)(O)OP(=O)(O)OP(=O)(O)O)O1,HIV,RT-M41L T215Y,Reverse transcriptase,nucleotide incorporation / radiometric,fold resistance,2
COC(=O)c1cn(Cc2ccc(Cl)c(Cl)c2)c(=O)c2c(O)c(=O)ccn12,HIV-1,-,Integrase,ELISA,IC50,0.01–0.1 µM
Nc1nc2c(ncn2[C@H]2CC[C@@H](COP(=O)(O)OP(=O)(O)OP(=O)(O)OP(=O)(O)OC[C@@H]3CC[C@H](n4cnc5c(=O)[nH]c(N)nc54)O3)O2)c(=O)[nH]1,HIV,RT-K65R,Reverse transcriptase,nucleotide incorporation / radiometric,IC50,9.5 µM
Nc1ccn([C@@H]2CS[C@H](COP(=O)(O)OP(=O)(O)OP(=O)(O)O)O2)c(=O)n1,HIV,RT-K65R,Reverse transcriptase,radiometric,fold resistance,1.7
Nc1ccn([C@H]2CC[C@@H](COP(=O)(O)OP(=O)(O)OP(=O)(O)OP(=O)(O)OC[C@@H]3CC[C@H](n4ccc(N)nc4=O)O3)O2)c(=O)n1,HIV,RT-K65R,Reverse transcriptase,nucleotide incorporation / radiometric,IC50,11 µM
Cc1ccc(-c2nnc3ccc4c(C(F)(F)F)cc(C(F)(F)F)nc4n23)cc1,HIV-1,-,gp41,fluorescence,IC50,10 µM
O=C(Cc1ccccn1)Nc1cn2ccn(Cc3cccc(Cl)c3)c(=O)c2c(O)c1=O,HIV-1,-,Integrase,ELISA,IC50,0.01–0.1 µM
COCC(=O)NCC(=O)NCCCCC(C)(C)CN(C[C@@H](O)[C@H](Cc1ccccc1)NC(=O)O[C@H]1CO[C@H]2OCC[C@H]21)S(=O)(=O)c1ccc2c(c1)OCO2,HIV-1,-,Protease,fluorescence,Ki,<0.001 µM
FC(F)(F)c1cc(C(F)(F)F)c2ccc3nnc(-c4ccccc4)n3c2n1,HIV-1,-,gp41,fluorescence,IC50,10 µM
Nc1ncnc2c1ncn2[C@H]1CC[C@@H](COP(=O)(O)OP(=O)(O)OP(=O)(O)OP(=O)(O)OC[C@@H]2CC[C@H](n3cnc4c(N)ncnc43)O2)O1,HIV,RT-D67N K70R T215Y K219Q,Reverse transcriptase,nucleotide incorporation / radiometric,fold resistance,0.1
CNC(=O)NCCC(C)(C)CN(C[C@@H](O)[C@H](Cc1ccccc1)NC(=O)O[C@H]1CO[C@H]2OCC[C@H]21)S(=O)(=O)c1ccc2c(c1)OCO2,HIV-1,-,Protease,fluorescence,Ki,<0.001 µM
O=C(NCc1cccnc1)c1cn2c(c(O)c1=O)C(=O)N(Cc1cccc(Cl)c1)CC2,HIV-1,-,Integrase,ELISA,IC50,0.01–0.1 µM
CC(C)(CCCNS(C)(=O)=O)CN(C[C@@H](O)[C@H](Cc1ccccc1)NC(=O)O[C@H]1CO[C@H]2OCC[C@H]21)S(=O)(=O)c1cccc2c1OCCO2,HIV-1,-,Protease,fluorescence,Ki,<0.001 µM
O=C(NC(CCc1ccccc1)c1ccccc1)c1cn2c(c(O)c1=O)C(=O)N(Cc1cccc(Cl)c1)CC2,HIV-1,-,Integrase,ELISA,IC50,0.01–0.1 µM
CC(C)(CCCNC(=O)NC(C)(C)C)CN(C[C@@H](O)[C@H](Cc1ccccc1)NC(=O)O[C@H]1CO[C@H]2OCC[C@H]21)S(=O)(=O)c1ccc2c(c1)OCO2,HIV-1,-,Protease,fluorescence,Ki,<0.001 µM
COC(=O)c1cc(=O)c(O)c2n1CCN(Cc1ccc(Cl)c(Cl)c1)C2=O,HIV-1,-,Integrase,ELISA,IC50,0.01–0.1 µM
CC(C)(CCCCCNC(=O)CO)CN(C[C@@H](O)[C@H](Cc1ccccc1)NC(=O)O[C@H]1CO[C@H]2OCC[C@H]21)S(=O)(=O)c1ccc2c(c1)OCO2,HIV-1,-,Protease,fluorescence,Ki,<0.001 µM
CC(=O)c1cn2ccn(Cc3cccc(Cl)c3)c(=O)c2c(O)c1=O,HIV-1,-,Integrase,ELISA,IC50,<0.01 µM
COC(=O)NCCCCC(C)(C)CN(C[C@@H](O)[C@H](Cc1ccccc1)NC(=O)OC1COCOC1)S(=O)(=O)c1ccc2c(c1)OCO2,HIV-1,-,Protease,fluorescence,Ki,<0.001 µM
FC(F)(F)c1cc(C(F)(F)F)c2ccc3nnc(-n4cccc4)n3c2n1,HIV-1,-,gp41,fluorescence,IC50,40 µM
CC(C)(CCCCNC(=O)c1ccccc1)CN(C[C@@H](O)[C@H](Cc1ccccc1)NC(=O)O[C@H]1CO[C@H]2OCC[C@H]21)S(=O)(=O)c1ccc2c(c1)OCO2,HIV-1,-,Protease,fluorescence,Ki,<0.001 µM
O=c1c(-c2ccncn2)cn2ccn(Cc3ccc(F)c(Cl)c3)c(=O)c2c1O,HIV-1,-,Integrase,ELISA,IC50,<0.01 µM
CCOC(=O)NCCC(C)(C)CN(C[C@@H](O)[C@H](Cc1ccccc1)NC(=O)O[C@H]1CO[C@H]2OCC[C@H]21)S(=O)(=O)c1ccc2c(c1)OCO2,HIV-1,-,Protease,fluorescence,Ki,<0.001 µM
Nc1ccn([C@H]2CC[C@@H](COP(=O)(O)OP(=O)(O)OP(=O)(O)O)O2)c(=O)n1,HIV,RT-K65R,Reverse transcriptase,nucleotide incorporation / radiometric,IC50,0.44 µM

For reference, 3 entries again:

| smiles | species | mutations | target | method | measure | result |
|---|---|---|---|---|---|---|
| O=c1c(-c2ccncn2)cn2ccn(Cc3ccc(F)c(Cl)c3)c(=O)c2c1O | HIV-1 | - | Integrase | ELISA | IC50 | <0.01 µM |
| COCC(=O)NCC(=O)NCCCCC(C)(C)CN(C[C@@H](O)[C@H](Cc1ccccc1)NC(=O)O[C@H]1CO[C@H]2OCC[C@H]21)S(=O)(=O)c1ccc2c(c1)OCO2 | HIV-1 | - | Protease | fluorescence | Ki | <0.001 µM |
| COC(=O)c1cc(=O)c(O)c2n1CCN(Cc1ccc(Cl)c(Cl)c1)C2=O | HIV-1 | - | Integrase | ELISA | IC50 | 0.01–0.1 µM |